System: V. virens pB-Vv51wt transformants (P-F)
Test: Tebuconazole sensitivity, mycelial growth on amended PSA, pB-Vv51wt transformants
Assay type: cell-based, Villosiclava virens

CC(C)(C)C(O)(CCc1ccc(Cl)cc1)Cn1cncn1 (centres unmarked) [tebuconazole]
Resistance factor (EC50 of P-F 4 divided by EC50 of parental isolate FJ4-1b): 2.67 | Resistance factor (EC50 of P-F 7 divided by EC50 of parental isolate FJ4-1b): 5.79 | Resistance factor (EC50 of P-F 8 divided by EC50 of parental isolate FJ4-1b): 3.10 | Resistance factor (EC50 of P-F 9 divided by EC50 of parental isolate FJ4-1b): 3.67 | Resistance factor (EC50 of P-F 10 divided by EC50 of parental isolate FJ4-1b): 2.90 | Resistance factor (EC50 of P-F 13 divided by EC50 of parental isolate FJ4-1b): 2.69 | Resistance factor (EC50 of P-F 14 divided by EC50 of parental isolate FJ4-1b): 6.64 | Resistance factor (EC50 of P-F 15 divided by EC50 of parental isolate FJ4-1b): 3.02 | Resistance factor (EC50 of P-F 16 divided by EC50 of parental isolate FJ4-1b): 3.17 | Resistance factor (EC50 of P-F 17 divided by EC50 of parental isolate FJ4-1b): 4.71 | Resistance factor (EC50 of P-F 20 divided by EC50 of parental isolate FJ4-1b): 6.50 | Resistance factor (EC50 of P-F 22 divided by EC50 of parental isolate FJ4-1b): 3.52 | Resistance factor (EC50 of P-F 23 divided by EC50 of parental isolate FJ4-1b): 4.76 | Resistance factor (EC50 of P-F 25 divided by EC50 of parental isolate FJ4-1b): 3.64 | Resistance factor (EC50 of P-F 26 divided by EC50 of parental isolate FJ4-1b): 4.26 | Resistance factor (EC50 of P-F 28 divided by EC50 of parental isolate FJ4-1b): 3.05 | Resistance factor (EC50 of P-F 29 divided by EC50 of parental isolate FJ4-1b): 6.07 | Resistance factor (EC50 of P-F 31 divided by EC50 of parental isolate FJ4-1b): 5.83 | Resistance factor (EC50 of P-F 32 divided by EC50 of parental isolate FJ4-1b): 7.71 | Resistance factor (EC50 of P-F 33 divided by EC50 of parental isolate FJ4-1b): 2.74 | Resistance factor (EC50 of P-F 34 divided by EC50 of parental isolate FJ4-1b): 3.55 | Resistance factor (EC50 of P-F 36 divided by EC50 of parental isolate FJ4-1b): 5.33 | Resistance factor (EC50 of P-F 37 divided by EC50 of parental isolate FJ4-1b): 2.52 | Resistance factor (EC50 of P-F 38 divided by EC50 of parental isolate FJ4-1b): 7.29 | Resistance factor (EC50 of P-F 39 divided by EC50 of parental isolate FJ4-1b): 2.98 | Resistance factor (EC50 of P-F 40 divided by EC50 of parental isolate FJ4-1b): 4.90
